Consider 1 substance from article PMC3785227.

A word on the Kd: it is the concentration at which binding is half-saturated. Low readings indicate a tighter complex, high ones a looser complex.

The test concerns the target stripped core gp120 (HIV strain YU2), displayed on yeast (HIV-1 strain YU2). The test can be described thus: flow cytometry on cells. (In general: Flow cytometry measures light scatter and fluorescence of single cells or particles in a stream.)

With “CD4-Fc (from UniProt P01730) (Fc fusion)”, the Kd is 5.6 nM.
